For this assay, the system named is Vibrio harveyi. The assay can be described thus: Growth inhibition of Vibrio harveyi assessed as time required to double bacterial growth relative to control. The format is functional, organism-based.

Calls of active or inactive are those of the source. The rule behind the calls is not given here.

As to `O=[N+]([O-])c1cc([N+](=O)[O-])c(O)c(O)c1O`, the result was inactive.

The values are drawn from ChEMBL document CHEMBL1141519, “Pyrogallol and its analogs can antagonize bacterial quorum sensing in Vibrio harveyi” (Bioorg Med Chem Lett, 2008).
